Results of unrelated studies side by side (data: NIAID ChemDB).

Common to all: host cell toxicity; cells: MT-4; read-out: CC50

CCn is the concentration with n% toxicity to the cells.

{"compound": "COc1cc(C2SCCN2S(=O)(=O)c2cccc3c(N(C)C)cccc23)ccc1O", "result": "82.56 µM"}
{"compound": "Cc1cn([C@H]2C[C@H](N=[N+]=[N-])[C@@H](CO)O2)c(=O)[nH]c1=O", "read by": "MTT", "result": "24 µg/mL"}
{"compound": "CC(C)(C)OC(=O)N[C@@H](Cc1ccccc1)C(=O)N[C@H](Sc1ccccc1)C(=O)NCc1ccccc1", "read by": "trypan blue", "result": "50 µM"}
{"compound": "C/C(CO)=C(/Br)Cn1cc(I)c(=O)[nH]c1=O", "result": ">100 µg/mL"}
{"compound": "Nc1ncnc2c1ncn2[C@H]1C=C[C@@H](CO)O1", "result": "9.5 µM"}
{"compound": "Cc1cn([C@H]2C[C@@H](O)[C@H](CO)O2)c(=O)[nH]c1=O", "result": ">100 µM"}
{"compound": "N#CCCN1C(=O)N(Cc2ccccc2)S(=O)(=O)c2cscc21", "result": "130.4 µM"}
{"compound": "COc1ccc(-c2coc3cc(O)c(OC)cc3c2=O)cc1", "result": ">100 µg/mL"}
{"compound": "Cc1nc(N2C(=O)CSC2c2c(F)cccc2Cl)ccc1Br", "result": "30.12 µM"}
{"compound": "Nc1ncnc2c1ncn2CCOCP(=O)(O)O", "result": ">70 µM"}
{"compound": "C1CNCCNCCCNCCNC1", "result": "226 µg/mL"}
{"compound": "O=C1CSC(c2c(F)cccc2F)N1Cc1ccco1", "result": "208 µM"}
{"compound": "O=C1Nc2cscc2S(=O)(=O)N1c1cccc(Cl)c1", "result": "110.7 µM"}
{"compound": "CNc1nc(N)c(C)c(C(=O)c2ccccc2)n1", "result": ">25 µM"}
{"compound": "Cc1cn([C@H]2C[C@H](N=[N+]=[N-])[C@@H](CO)O2)c(=O)[nH]c1=O", "read by": "WST", "result": ">1 µM"}
{"compound": "CCS(=O)(=O)C[C@H]1O[C@@H](n2cc(C)c(=O)[nH]c2=O)C[C@@H]1N=[N+]=[N-]", "result": "4.4 µg/mL"}
{"compound": "Cc1cc(C#N)cc(C)c1Oc1ccnc(S(=O)(=O)CC(=O)Nc2ccccc2)n1", "read by": "MTT", "result": ">29.3 µM"}
{"compound": "O=c1[nH]cnc2c1ncn2[C@H]1CC[C@@H](CO)O1", "read by": "MTT", "result": ">1000 µM"}
{"compound": "O=C1CSC(c2c(Cl)cccc2Cl)N1c1cccc(C(F)(F)F)c1", "result": "8.62 µM"}
{"compound": "Cc1cn([C@H]2C[C@H](N=[N+]=[N-])[C@@H](CO)O2)c(=O)[nH]c1=O", "result": "1 µg/mL"}
{"compound": "O=C1Nc2cscc2S(=O)(=O)N1c1ccc(Cl)cc1", "result": "266.5 µM"}
{"compound": "Cc1cn([C@H]2C=C[C@@H](CO)O2)c(=O)[nH]c1=O", "result": "~25 µg/mL"}
{"compound": "CN(C)c1cccc2c(S(=O)(=O)N3CCSC3c3ccccn3)cccc12", "result": ">1000 µM"}
{"compound": "CSc1nc(N)c(C)c(C(=O)Cc2ccccc2)n1", "result": ">25 µM"}
{"compound": "O=C1CSC(c2c(Cl)cccc2Cl)N1C1CCCCC1", "result": "5.25 µM"}
{"compound": "CN(C)c1cccc2c(S(=O)(=O)N3CCSC3c3cccnc3)cccc12", "result": "1830 µM"}
{"compound": "CN1C(=O)Nc2cscc2S1(=O)=O", "result": ">99.8 µM"}
{"compound": "CSc1nc(N)c(C)c(C(=O)c2cccc3ccccc23)n1", "result": ">19.37 µM"}
{"compound": "Nc1ccn([C@H]2CC[C@@H](CO)O2)c(=O)n1", "result": "9.1 µM"}
{"compound": "O=C(/C=C/c1ccc(OC2OC(CO)C(O)C(O)C2OC2OCC(O)(CO)C2O)cc1)c1ccc(O)cc1O", "result": ">100 µg/mL"}
{"compound": "Nc1nc2c(ncn2[C@H]2C[C@@H](O)[C@H](CO)O2)c(=O)[nH]1", "result": "50 µM"}
{"compound": "O=C1Nc2c(csc2[N+](=O)[O-])S(=O)(=O)N1Cc1ccccc1", "result": "<5.9 µM"}
{"compound": "CSc1nc(N)c(C)c(C(O)c2ccccc2)n1", "result": ">25 µM"}
{"compound": "CCN1C(=O)N(Cc2ccc(OC)cc2OC)S(=O)(=O)c2cscc21", "result": "255.2 µM"}
{"compound": "COC[C@@H](c1ccc(C(F)(F)F)cc1)N1CCN(C2(C)CCN(C(=O)c3c(C)ncnc3C)CC2)C[C@@H]1C", "read by": "MTT / absorbance", "result": ">5 µM"}
{"compound": "Cc1c(N)nc(S(C)(=O)=O)nc1C(=O)c1ccccc1", "result": ">25 µM"}
{"compound": "O=c1ccn([C@@H]2O[C@@H](CO)[C@H](O)[C@H]2O)c(=O)[nH]1", "result": ">1000 µM"}
{"compound": "O=C1CSC(c2c(F)cccc2F)N1c1cccc(C(F)(F)F)c1", "result": "36.4 µM"}
{"compound": "CC1CCCCN1CCCNCc1ccc(CNCCCN2CCCCC2C)cc1", "read by": "MTT", "result": ">25 µg/mL"}
{"compound": "C=C(C)[C@]12C[C@@H](C)C34OC(/C=C/C=C/CCCCCCCCCC)(OC1C3[C@@H]1O[C@]1(CO)[C@@H](O)[C@]1(O)C(=O)C(C)=CC41)O2", "result": "16.7 µM"}
{"compound": "COCOc1ccc(/C=C/C(=O)c2c(O)cc(OCOC)cc2OCOC)c(OCOC)c1", "result": "19 µg/mL"}
{"compound": "Nc1nc2c(ncn2[C@@H]2O[C@@H](CO)[C@H](O)[C@H]2O)c(=O)[nH]1", "result": "100 µM"}
{"compound": "CC(C)=CCN1Cc2cc(Cl)cc3[nH]c(=S)n(c23)C[C@@H]1C", "read by": "MTT", "result": "29 µg/mL"}
{"compound": "O=C(c1ccccc1)N1C(=O)N(Cc2ccccc2)S(=O)(=O)c2cscc21", "result": "132.3 µM"}
{"compound": "CN(C)c1ccc(C2SCC(=O)N2Cc2ccco2)cc1", "result": "43.36 µM"}
{"compound": "CCOCn1c(Cc2cc(C)cc(C)c2)c(CC)c(=O)[nH]c1=O", "read by": "MTT", "result": ">100 µg/mL"}
{"compound": "COc1cc(OC)c(C2SCC(=O)N2c2cccc(C)n2)c(OC)c1", "result": "194.3 µM"}
{"compound": "C1CNCCNCCCN[C@@H]([C@H]2CNCCCNCCNCCCN2)CNC1", "result": "172 µg/mL"}
{"compound": "CC1(C)C=Cc2cc(-c3coc4cc(O)cc(O)c4c3=O)cc(O)c2O1", "result": "22 µg/mL"}
{"compound": "NC1=Nc2c(ncn2CCC(/C=C/P(=O)(O)O)CO)C(=O)C1", "read by": "MTT", "result": "1235 µM"}
{"compound": "C/C(CO)=C(/Br)Cn1ccc(N)nc1=O", "result": ">100 µg/mL"}
{"compound": "O=c1ccn([C@H]2CC[C@@H](CO)O2)c(=O)[nH]1", "result": ">250 µM"}
{"compound": "CCN1C(=O)N(c2cccc(Cl)c2)S(=O)(=O)c2cscc21", "result": "62.4 µM"}

7 of the rows above, restated:

compound	read by	result
CC(C)(C)OC(=O)N[C@@H](Cc1ccccc1)C(=O)N[C@H](Sc1ccccc1)C(=O)NCc1ccccc1	trypan blue	50 µM
CC1(C)C=Cc2cc(-c3coc4cc(O)cc(O)c4c3=O)cc(O)c2O1		22 µg/mL
C/C(CO)=C(/Br)Cn1cc(I)c(=O)[nH]c1=O		>100 µg/mL
COCOc1ccc(/C=C/C(=O)c2c(O)cc(OCOC)cc2OCOC)c(OCOC)c1		19 µg/mL
O=C1CSC(c2c(Cl)cccc2Cl)N1c1cccc(C(F)(F)F)c1		8.62 µM
O=c1ccn([C@H]2CC[C@@H](CO)O2)c(=O)[nH]1		>250 µM
COc1cc(OC)c(C2SCC(=O)N2c2cccc(C)n2)c(OC)c1		194.3 µM

An empty or dashed field is not shown. Lines come from different laboratories, so protocols vary.